A mixed list of measured activities; the numbers were collected in NIAID ChemDB.

Shared fields: whole-cell or culture tests; species: Hepatitis C virus; read by: replicon; read-out: EC50

a–b is a range or a potency band. An empty or dashed field is not shown. Neighbouring rows are from separate reports. ECn: concentration that inhibits the pathogen or its effect by n%.

smiles,strain or isolate,cell line,result
C=CC1CC1(NC(=O)[C@@H]1C[C@@H](OC(=O)N[C@H](C(=O)OC)[C@@H](C)CC)CN1C(=O)[C@@H](NC(=O)OC(C)(C)C)C(C)(C)C)C(=O)NS(=O)(=O)C1CC1,1b,Huh7,>10 µM
O=C(O)c1c(-c2ccc[nH]c2=O)c2c3occc3c(F)cc2n1Cc1cc2[nH]cnc2cc1F,-,-,<0.5 µM
C=CC1CC1(NC(=O)[C@@H]1C[C@@H](OC(=O)Nc2ccccc2C(=O)OCC)CN1C(=O)[C@@H](NC(=O)OC)C(C)(C)C)C(=O)NS(=O)(=O)C1CC1,1b,Huh7,0.1–1 µM
CN1CCN(c2cc3c(cc2F)c(=O)c(-c2noc(Cc4ccc(F)cc4)n2)cn3Cc2ccc(C(F)(F)F)cc2)CC1,1b,-,<0.5 µM
Nc1cc(Cn2c(C(=O)O)c(-c3ccc[nH]c3=O)c3c4ccccc4ccc32)ccn1,-,-,1–10 µM
CNC(=O)c1c(-c2ccc(F)cc2)oc2cc(N(C)S(C)(=O)=O)c(OCc3cscn3)cc12,-,Huh7,<1 µM
O=C(O)c1cccc(Cn2c(C(=O)O)c(-c3ccccc3F)c3c4ccccc4ccc32)c1,-,-,>10 µM
CNC(=O)c1c(-c2ccc(F)cc2)oc2cc(OCc3ccccc3)c(OCc3ccccc3)cc12,-,Huh7,<10 µM
O=C(O)c1ccc(F)c(Cn2c(C(=O)O)c(-c3ccc[nH]c3=O)c3c4occc4c(F)cc32)c1,-,-,0.5–1.5 µM
CNC(=O)c1c(-c2ccc(F)cc2)oc2cc(N(Cc3ccc(C(=O)OC)cc3)S(C)(=O)=O)c(OC(C)C)cc12,-,Huh7,<1 µM
C=CC1CC1(NC(=O)[C@@H]1C[C@@H](OC(=O)Nc2c(C)cccc2Cl)CN1C(=O)[C@@H](NC(=O)OC(C)(C)C)C(C)(C)C)C(=O)NS(=O)(=O)C1CC1,1b,Huh7,1–10 µM
O=c1c(-c2noc(Cc3ccccc3)n2)cn(Cc2ccc(C(F)(F)F)cc2)c2cc(-n3ccnc3)c(F)cc12,1b,-,<2 µM
CNC(=O)c1c(-c2ccc(F)cc2)oc2cc(-c3c(C)noc3C)c(OCCCO)cc12,-,Huh7,<1 µM
C=CC1CC1(NC(=O)[C@@H]1C[C@@H](OC(=O)N(C(C)C)C(C)C)CN1C(=O)[C@@H](NC(=O)OC(C)(C)C)C(C)(C)C)C(=O)NS(=O)(=O)C1CC1,1b,Huh7,0.1–1 µM
O=C(O)c1c(-c2ccc[nH]c2=O)c2c3occ(Cl)c3c(F)cc2n1Cc1cc(F)ccc1F,-,-,<0.5 µM
CN1CCN(c2cc3c(cc2F)c(=O)c(-c2noc(Cc4ccccn4)n2)cn3Cc2ccc(Cl)cc2)CC1,1b,-,>10 µM
Nc1ccccc1S(=O)(=O)NC(=O)c1c(-c2ccc[nH]c2=O)c2c3occc3c(F)cc2n1Cc1ccccc1F,-,-,0.5–1.5 µM
CNC(=O)c1c(-c2ccc(F)cc2)oc2cc(C3CCCN3C(N)=O)c(OC)cc12,-,Huh7,<1 µM
CN1CCN(c2cc3c(cc2F)c(=O)c(-c2noc(CN4CCCC4)n2)cn3Cc2ccc(Cl)cc2)CC1,1b,-,>10 µM
CNC(=O)c1c(-c2ccc(F)cc2)oc2cc(N(C)S(C)(=O)=O)c(OCC(C)O)cc12,-,Huh7,<1 µM
CS(=O)(=O)NC(=O)c1c(-c2ccc[nH]c2=O)c2c3occc3c(F)cc2n1Cc1ccc2nc(C(F)(F)F)[nH]c2c1,-,-,<0.5 µM
O=c1c(-c2noc(Cc3ccc(F)cc3)n2)cn(Cc2ccc(Cl)cc2)c2cc(N3CCN(c4ccccn4)CC3)c(F)cc12,1b,-,>10 µM
C=CC1CC1(NC(=O)[C@@H]1C[C@@H](OC(=O)Nc2cc(C)nn2-c2ccccc2)CN1C(=O)[C@@H](NC(=O)OC(C)(C)C)C(C)(C)C)C(=O)NS(=O)(=O)C1CC1,1b,Huh7,>10 µM
CC(C)(c1ccccc1)c1nc(-c2cn(Cc3ccc(C(F)(F)F)cc3)c3cc(N4CCNC(=O)C4)c(F)cc3c2=O)no1,1b,-,<10 µM
CNC(=O)c1c(-c2ccc(F)cc2)oc2cc(N(C)C)c(OC)cc12,-,Huh7,<1 µM
CCOC(=O)c1c(-c2ccccc2F)c2c3c(C)c(C)[nH]c3ccc2n1Cc1ccccc1,-,-,>1.5 µM
CC(C)(c1ccc(Cl)cc1)c1nc(-c2cn(Cc3ccc(C(F)(F)F)cc3)c3cc(N4CCS(=O)(=O)CC4)c(F)cc3c2=O)no1,1b,-,<0.5 µM
CS(=O)(=O)NC(=O)c1c(-c2ccc[nH]c2=O)c2c3c(c(F)cc2n1Cc1csc(C(N)=O)c1)CCO3,-,-,<0.5 µM
CN1CCN(c2cc3c(cc2F)c(=O)c(-c2noc(Cc4ccccc4)n2)cn3Cc2c(F)cccc2Cl)CC1,1b,-,<10 µM

For reference, 4 entries again:

smiles	strain or isolate	cell line	result
O=c1c(-c2noc(Cc3ccccc3)n2)cn(Cc2ccc(C(F)(F)F)cc2)c2cc(-n3ccnc3)c(F)cc12	1b	-	<2 µM
Nc1ccccc1S(=O)(=O)NC(=O)c1c(-c2ccc[nH]c2=O)c2c3occc3c(F)cc2n1Cc1ccccc1F	-	-	0.5–1.5 µM
C=CC1CC1(NC(=O)[C@@H]1C[C@@H](OC(=O)N[C@H](C(=O)OC)[C@@H](C)CC)CN1C(=O)[C@@H](NC(=O)OC(C)(C)C)C(C)(C)C)C(=O)NS(=O)(=O)C1CC1	1b	Huh7	>10 µM
Nc1cc(Cn2c(C(=O)O)c(-c3ccc[nH]c3=O)c3c4ccccc4ccc32)ccn1	-	-	1–10 µM